PubChem BioAssay AID1259414 | Drosophila RNAi Screening Center, 2018
Aim: 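Host factors increasing or decreasing Wolbachia levels in cultured fly cells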 (primary screen). System: Drosophila JW18 cells infected with Wolbachia. Knock-down reagent: long dsRNA against Drosophila genes, 0.25 µg dsRNA per well of a 384-well plate. Timing: 5 days. Challenge: cells persistently infected with Wolbachia before knock-down; no added drug. Read-out: 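Imaged fluorescence in situ signal for Wolbachia 23S rRNA per DAPI-counted host cell, given as a robust z-score within each plate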. Scale: Wolbachia per cell robust z: higher = more Wolbachia per host cell than the plate typical. Hit rule: 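Active if absolute robust z reaches 1.5 in two or more of three replicates, leaving out multi- or no-target dsRNAs, genes unexpressed in JW18 and A1 wells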.
In all, the deposit lists about 24,000 reagents; this is an unselected part of those that have a named target and a result. In the full data, about 1,210 (5%) got an active call. 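Inactive calls also include excluded dsRNAs with several or no targets, genes unexpressed in JW18, and well A1, regardless of score.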 The numbers tell different reagents against one gene apart. Names joined by + are all predicted targets of the reagent.

Gene	reagent no.	Wolbachia per cell robust z, rep 1	Wolbachia per cell robust z, rep 2	Wolbachia per cell robust z, rep 3	outcome
CG10237	1	-1.21	-1.27	-0.792	inactive
Tcs3	1	1.39	0.957	0.241	inactive
Tcs3	2	0.104	0.41	-0.0842	inactive
Ten-m	1	-0.568	-0.493	0.884	inactive
Ten-m	2	0.52	0.671	0.895	inactive
CG12725	1	-0.734	-0.669	-4.17	inactive
CG12725	2	0.528	0.028	0.382	inactive
Pi4KIIalpha	1	-1.38	-3.93	-0.525	inactive
Pi4KIIalpha	2	0.0111	-0.752	0.0862	inactive
Pi4KIIalpha	3	1.2	0.607	0.725	inactive
Gr64c + Gr64b	1	0.458	0.0326	-3.06	inactive
Gr64c + Gr64b	2	-1.05	0.649	-4.49	inactive
Or9a	1	-0.0377	-3.3	0.0627	inactive
Or9a	2	-0.465	-2.13	-1.42	inactive
CG1792	1	-0.141	-0.384	0.484	inactive
CG1792	2	0.252	-1.56	-1.51	active
Poxm	1	0.0997	0.131	-0.422	inactive
Poxm	2	0.64	-0.546	0.857	inactive
qm	1	-1.79	-0.525	-1.22	inactive
qm	2	0.0165	0.547	1.38	inactive
Ugt36F1	1	0.421	1.01	-0.124	inactive
CG7903	1	1.16	-4.02	-0.479	inactive
CG7903	2	-3.13	0.27	0.617	inactive

Single entries from the list:
Entry for CG10237 under “Wolbachia per cell robust z, rep 1”: -1.21
Pi4KIIalpha #1, outcome: inactive
Value of Poxm #1 under “Wolbachia per cell robust z, rep 2”: 0.131
Result of Ten-m #2 under “Wolbachia per cell robust z, rep 1”: 0.52
Under “Wolbachia per cell robust z, rep 3”, qm #1 has -1.22
Value for Poxm #2 under “Wolbachia per cell robust z, rep 3”: 0.857

Additional reagents:
Gene	reagent no.	Wolbachia per cell robust z, rep 1	Wolbachia per cell robust z, rep 2	Wolbachia per cell robust z, rep 3	outcome
Trc8	1	0.417	-1.21	-5.44	inactive
Trc8	2	0.508	-0.662	-1.29	inactive
rst	1	-1.27	-1.18	-1.05	inactive
rst	2	-0.731	-0.0921	-3.5	inactive
rst	3	0.654	2.63	1.26	inactive
rst	4	-1	-1.09	-0.071	inactive
CG32281	1	-1.01	0.655	1.17	inactive
CG32112	1	0.317	0.798	-0.0235	inactive
Eglp2	1	-5.99	0.56	-0.403	inactive
Agpat3	1	0.695	0.318	-1.24	inactive
CG5909	1	0.513	-0.217	-3.27	inactive
CG5909	2	-0.565	-0.635	1.16	inactive
CG15747	1	0.384	0.91	-0.274	inactive
CG15747	2	-0.561	-0.376	-1.04	inactive
rdo	1	1.37	0.272	-2.59	inactive
rdo	2	0.97	1.15	-0.445	inactive
Ser7	1	0.505	-0.883	0.623	inactive
gas	1	-0.185	0.282	-1.9	inactive
Dph1	1	-0.0354	-5.61	-0.191	inactive
Usp32	1	0.531	-0.563	0.755	inactive
CG30184	1	0.901	0.857	0.754	inactive
CG30184	2	-0.309	-0.635	0.538	inactive
mus304	1	1.16	1.81	0.155	inactive
CG10953	1	0.00911	-0.329	0.476	inactive
Acn	1	0.214	-0.504	-1.53	inactive
Acn	2	-1.36	-0.796	-1.38	inactive
Klp61F	1	-6.78	0.166	1.11	inactive
Klp61F	2	3.25	3.67	4.92	active
Klp61F	3	0.261	0.785	0.552	inactive
Ir76a + CG14102	1	-0.972	0.423	0.532	inactive
CG31205	1	0.933	-1.47	-0.399	inactive
CG31205	2	-0.183	0.782	0.769	inactive
scramb2	1	-1.38	-0.27	-0.418	inactive
scramb2	2	0.615	0.477	1.29	inactive
AP-1mu	1	-0.805	-2.08	-0.233	inactive
AP-1mu	2	1.08	0.172	-0.501	inactive
RabGGTb	1	0.0609	-0.845	-0.362	inactive
RabGGTb	2	0.845	1.12	1.64	inactive
Ppa	1	1.07	0.551	0.173	inactive
Ppa	2	-3.88	-0.417	0.0216	inactive
CG15717	1	-1.02	0.0529	-1.22	inactive
Cyp6a21	1	-3.71	-0.464	-2.17	inactive
nAChRalpha2	1	0.452	0.69	-0.185	inactive
nAChRalpha2	2	-0.968	0.566	1.03	inactive
CCY	1	-0.0969	0.476	0.521	inactive
CCY	2	2.12	0.302	0.0805	inactive
CCY	3	-2.65	-1.85	-0.748	inactive
